Primary screen of a compound library

Measurements from “University of Dundee, Small-Polar-MMV Screening Library” (2021), ChEMBL document CHEMBL3988442.

Mtb glucose medium: 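Growth of Mycobacterium tuberculosis over 3 days (7H9 medium with glucose and tyloxapol); the read-out is not stated. Tested at 50 µM. The record gives no direction; compounds that gave an IC50 in retests scored well above the rest, so higher reads as more growth inhibition. Of about 69,000 compounds tested this way, about 760 (1.1%) reached 50% or more in at least one test.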
Mtb cholesterol medium: 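Phenotypic screen: M. tuberculosis growth, cholesterol and DPPC medium, 4 days; the read-out is not stated. Concentration: 50 µM. The record gives no direction; compounds that gave an IC50 in retests scored well above the rest, so higher reads as more growth inhibition. Size under these conditions: about 69,000 compounds, about 370 of them at 50% or above in at least one test.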

Results are given as percent effect.
The controls that fix the scale are not given in the record; negative values are as filed.
The entries come from a sample that favours strong results.
Two or more numbers in one place are separate tests of the same structure; such repeats can differ widely.

{"compound": "CO[C@@H]1CCN(Cc2ccoc2)C[C@@H]1Cc1ccccc1.O=C(O)C(F)(F)F", "Mtb glucose medium": 5.26}
{"compound": "Cl.Fc1cccc(CN2CCC(c3cc4ncccc4cn3)CC2)c1F", "Mtb glucose medium": 56.76, "Mtb cholesterol medium": 29.99}
{"compound": "CCn1nc(C)c2nc(C(C)C)nc(NCC(C)C)c21", "Mtb glucose medium": 62.72}
{"compound": "CC(=O)N1CCCC(c2ccccn2)C1", "stereo": "centres undefined", "Mtb glucose medium": -33.15, "Mtb cholesterol medium": -5.024}
{"compound": "COc1ccc(C(=O)O)cc1-c1cccc2c1CCNC2", "Mtb glucose medium": "-3.504 and -2.881", "Mtb cholesterol medium": -0.7425}
{"compound": "[H][C@@]12C[C@@H](Oc3cccnc3)CN1CCN(C(=O)c1ccncc1)C2", "Mtb cholesterol medium": 2.04}
{"compound": "CNS(=O)(=O)CC1CCCN1c1ccccn1", "stereo": "centres undefined", "Mtb glucose medium": -31.76}
{"compound": "CCN(C)C[C@@H]1CN(C(=O)c2cc(C(F)(F)F)n[nH]2)C[C@@H]1CO", "Mtb glucose medium": 7.907, "Mtb cholesterol medium": 1.862}
{"compound": "CCCN(C(=O)c1cccnc1)c1nc2c(s1)CCc1c-2cnn1C", "Mtb glucose medium": 41.92}
{"compound": "NC(=O)NC1CCN(Cc2ccc3c(c2)CCC3)CC1", "Mtb glucose medium": "-23.61 and 3.196"}
{"compound": "[H][C@@]12CCCCN(C)[C@]1([H])[C@@H](c1ccccc1)CCN2C(=O)c1ccncc1", "Mtb glucose medium": 14.66}
{"compound": "N#CC1(C(=O)NCc2ccc(F)cc2)CCCC1", "Mtb cholesterol medium": -17.3}
{"compound": "O=C(CCc1ccc(=O)[nH]n1)N1CCCC(COc2ccc(F)cc2)C1", "stereo": "centres undefined", "Mtb glucose medium": "4.541 and -5.16"}
{"compound": "O=C(O)C(F)(F)F.O=C(O)C(F)(F)F.c1cncc(-c2ccc3c(c2)CCC32CCN(Cc3nccs3)CC2)c1", "Mtb glucose medium": "40.75 and 47.77", "Mtb cholesterol medium": 19.61}
{"compound": "Cn1c(=O)c2c(c3ccccc31)OC(C)(C)CC2", "Mtb glucose medium": "7.633 and 19.54"}
{"compound": "CCCC(=O)N(CCCN1CCOCC1)c1nc2c(C)ccc(Cl)c2s1.Cl", "Mtb glucose medium": "19.43 and 20.22", "Mtb cholesterol medium": 49.91}
{"compound": "O=C(N[C@@H]1CCNC[C@H]1O)c1ccc(F)c(Cl)c1", "Mtb cholesterol medium": 22.14}
{"compound": "CSCC(C)(O)CNc1ccccn1", "stereo": "centres undefined", "Mtb glucose medium": 11.95}
{"compound": "Cc1nc(CN2CCCC(N(C)c3cnc4ccccc4n3)C2)no1", "stereo": "centres undefined", "Mtb glucose medium": 52.4}
{"compound": "CS(=O)(=O)NC[C@H]1Cn2c(-c3ccccc3)cnc2CO1", "Mtb glucose medium": "12.43 and 17.94"}
{"compound": "CSCCC1c2nc[nH]c2CCN1Cc1cc(Cl)ccc1O", "stereo": "centres undefined", "Mtb glucose medium": 56.95}
{"compound": "Cc1nn(CC(=O)N(C)Cc2nncn2C(C)C)c(=O)c2ccccc12", "Mtb cholesterol medium": 4.782}
{"compound": "COc1cccc(CNc2nc(C)cc(C)n2)c1OC", "Mtb glucose medium": -3.254, "Mtb cholesterol medium": -21.55}
{"compound": "Cl.O=c1c2sccc2nc2n1CCN(Cc1cc(F)ccc1F)CC2", "Mtb glucose medium": 60.16, "Mtb cholesterol medium": 47.09}
{"compound": "COCCNc1nc2c(c(NCCc3cccs3)n1)CCNCC2", "Mtb glucose medium": 51.03}
{"compound": "COc1ccc(NC(=O)c2nc3ccccc3n(C)c2=O)cc1OC", "Mtb glucose medium": 9.869}
{"compound": "CCc1ccc(OCCn2cccn2)cc1", "Mtb glucose medium": "-17.46 and 21.66", "Mtb cholesterol medium": -9.629}
{"compound": "CN1CCOC[C@H]1c1nc(-c2ccncc2)c[nH]1", "Mtb glucose medium": "8.876 and 5.056"}
{"compound": "COc1cc(C)nc(N2CCN(C(=O)c3cc(C)no3)CC2)n1", "Mtb glucose medium": 33.82}
{"compound": "Fc1cccc(-c2cccc(N3CCC(NC4CCCOC4)CC3)c2)c1", "stereo": "centres undefined", "Mtb glucose medium": 61.92, "Mtb cholesterol medium": 68.98}
{"compound": "Cc1ccc(C)c(-n2cc(CN3CC[C@@H](O)C3)c(-c3ccccc3)n2)c1", "Mtb glucose medium": 71.73}
{"compound": "[H][C@]12CC[C@]([H])(CN(Cc3cscn3)C1)N(Cc1cc(C(C)(C)C)[nH]n1)C2", "Mtb glucose medium": 18.9}
{"compound": "CC1C(=O)NCCN1CCOc1ccc(C#N)cc1", "stereo": "centres undefined", "Mtb glucose medium": 5.915, "Mtb cholesterol medium": 5.933}
{"compound": "CCN(CC)S(=O)(=O)NCCc1cc(C)ccc1OC", "Mtb glucose medium": -0.7897}
{"compound": "NC(=O)c1nnn(-c2ccc(Cl)cc2)n1", "Mtb glucose medium": 51.2}
{"compound": "CN(CCc1ccccc1)Cc1nc(Cc2cccc(F)c2)no1", "Mtb cholesterol medium": 54.55}